Source: PMC12040169 (PLOS Biology, 2025)

System: HeLa
Settings: bulk resorufin, single well; 28.5 h, 10 µM

| SMILES | % viability [%] |
| --- | --- |
| Nc1nonc1OCCOc1nonc1N | 0.9001 |
| COc1cc(C(=O)OC2CN3CCC2CC3)cc(OC)c1OC (stereo not shown) | 1.081 |
| CN1/C(=N/C#N)NP(=O)(O)C1(C)C | 1.019 |
| O=C1c2no[n+]([O-])c2C(=O)c2no[n+]([O-])c21 | 0.9857 |
